Results taken from US20040229298A1.
“And” between values parts separate entries of the source, which are not always exact repeats. Equal values may be shown once.

B1: GST-DLG2 PDZ domain 3 fusion protein (protein)
chain: MSPILGYWKIKGLVQPTRLLLEYLEEKYEEHLYERDEGDKWRNKKFELGLEFPNLPYYIDGDVKLTQSMAIIRYIADKHNMLGGCPKERAEISMLEGAVLDIRYGVSRIAYSKDFETLKVDFLSKLPEMLKMFEDRLCHKTYLNGDHVTHPDFMLYDALDVVLYMDPMCLDAFPKLVCFKKRIEAIPQIDKYLKSSKYIAWPLQGWQATFGGGDHPPKSDLIEGRKVVLHKGSTGLGFNIVGGEDGEGIFVSFILAGGPADLSGELQRGDQILSVNGIDLRGASHEQAAAALKGAGQTVTIIAQYQ
B2: GST-KIAA1095 PDZ domain 1 fusion protein (protein)
chain: MSPILGYWKIKGLVQPTRLLLEYLEEKYEEHLYERDEGDKWRNKKFELGLEFPNLPYYIDGDVKLTQSMAIIRYIADKHNMLGGCPKERAEISMLEGAVLDIRYGVSRIAYSKDFETLKVDFLSKLPEMLKMFEDRLCHKTYLNGDHVTHPDFMLYDALDVVLYMDPMCLDAFPKLVCFKKRIEAIPQIDKYLKSSKYIAWPLQGWQATFGGGDHPPKSDLIEGRTLVLHRDSGSLGFNIIGGRPSVDNHDGSSSEGIFVSKIVDSGPAAKEGGLQIHDRIIEVNGRDLSRATHDQAVEAFKTAKEPIVVQVLRRT
B3: GST-PSD95 PDZ domain 2 fusion protein (protein)
chain: MSPILGYWKIKGLVQPTRLLLEYLEEKYEEHLYERDEGDKWRNKKFELGLEFPNLPYYIDGDVKLTQSMAIIRYIADKHNMLGGCPKERAEISMLEGAVLDIRYGVSRIAYSKDFETLKVDFLSKLPEMLKMFEDRLCHKTYLNGDHVTHPDFMLYDALDVVLYMDPMCLDAFPKLVCFKKRIEAIPQIDKYLKSSKYIAWPLQGWQATFGGGDHPPKSDLIEGREIKLIKGPKGLGFSIAGGVGNQHIPGDNSIYVTKIIEGGAAHKDGRLQIGDKILAVNSVGLEDVMHEDAVAALKNTYDVVYLKVAKP
B4: GST-Outer Membrane PDZ domain 1 fusion protein (protein)
chain: MSPILGYWKIKGLVQPTRLLLEYLEEKYEEHLYERDEGDKWRNKKFELGLEFPNLPYYIDGDVKLTQSMAIIRYIADKHNMLGGCPKERAEISMLEGAVLDIRYGVSRIAYSKDFETLKVDFLSKLPEMLKMFEDRLCHKTYLNGDHVTHPDFMLYDALDVVLYMDPMCLDAFPKLVCFKKRIEAIPQIDKYLKSSKYIAWPLQGWQATFGGGDHPPKSDLIEGRLLTEEEINLTRGPSGLGFNIVGGTDQQYVSNDSGIYVSRIKENGAAALDGRLQEGDKILSVNGQDLKNLLHQDAVDLFRNAGYAVSLRVQHRLQVQNGIHS
B5: GST-Magi2 PDZ domain 1 fusion protein, Q86UL8 17-101 (protein)
chain: MSPILGYWKIKGLVQPTRLLLEYLEEKYEEHLYERDEGDKWRNKKFELGLEFPNLPYYIDGDVKLTQSMAIIRYIADKHNMLGGCPKERAEISMLEGAVLDIRYGVSRIAYSKDFETLKVDFLSKLPEMLKMFEDRLCHKTYLNGDHVTHPDFMLYDALDVVLYMDPMCLDAFPKLVCFKKRIEAIPQIDKYLKSSKYIAWPLQGWQATFGGGDHPPKSDLIEGRREKPLFTRDASQLKGTFLSTTLKKSNMGFGFTIIGGDEPDEFLQVKSVIPDGPAAQDGKMETGDVIVYINEVCVLGHTHADVVKLFQSVPIGQSVNLVLCRGYP
B6: GST-KIAA0147 PDZ domain 3 fusion protein (protein)
chain: MSPILGYWKIKGLVQPTRLLLEYLEEKYEEHLYERDEGDKWRNKKFELGLEFPNLPYYIDGDVKLTQSMAIIRYIADKHNMLGGCPKERAEISMLEGAVLDIRYGVSRIAYSKDFETLKVDFLSKLPEMLKMFEDRLCHKTYLNGDHVTHPDFMLYDALDVVLYMDPMCLDAFPKLVCFKKRIEAIPQIDKYLKSSKYIAWPLQGWQATFGGGDHPPKSDLIEGREIRLPRAGGPLGLSIVGGSDHSSHPFGVQEPGVFISKVLPRGLAARSGLRVGDRILAVNGQDVRDATHQEAVSALLRPCLELSLLVRRDP
B7: GST-TIP 43 #264.1 PDZ domain 1 fusion protein (protein)
chain: MSPILGYWKIKGLVQPTRLLLEYLEEKYEEHLYERDEGDKWRNKKFELGLEFPNLPYYIDGDVKLTQSMAIIRYIADKHNMLGGCPKERAEISMLEGAVLDIRYGVSRIAYSKDFETLKVDFLSKLPEMLKMFEDRLCHKTYLNGDHVTHPDFMLYDALDVVLYMDPMCLDAFPKLVCFKKRIEAIPQIDKYLKSSKYIAWPLQGWQATFGGGDHPPKSDLIEGRISNQKRGVKVLKQELGGLGISIKGGKENKMPILISKIFKGLAADQTQALYVGDAILSVNGADLRDATHDEAVQALKRAGKEVLLEVKYMREATPYV
B8: GST-DLG2 #290.1 PDZ domain 2 fusion protein (protein)
chain: MSPILGYWKIKGLVQPTRLLLEYLEEKYEEHLYERDEGDKWRNKKFELGLEFPNLPYYIDGDVKLTQSMAIIRYIADKHNMLGGCPKERAEISMLEGAVLDIRYGVSRIAYSKDFETLKVDFLSKLPEMLKMFEDRLCHKTYLNGDHVTHPDFMLYDALDVVLYMDPMCLDAFPKLVCFKKRIEAIPQIDKYLKSSKYIAWPLQGWQATFGGGDHPPKSDLIEGREIKLFKGPKGLGFSIAGGVGNQHIPGDNSIYVTKIIDGGAAQKDGRLQVGDRLLMVNNYSLEEVTHEEAVAILKNTSEVVYLKVGNP
B9: GST-TIP1 PDZ domain 1 fusion protein (protein)
chain: MSPILGYWKIKGLVQPTRLLLEYLEEKYEEHLYERDEGDKWRNKKFELGLEFPNLPYYIDGDVKLTQSMAIIRYIADKHNMLGGCPKERAEISMLEGAVLDIRYGVSRIAYSKDFETLKVDFLSKLPEMLKMFEDRLCHKTYLNGDHVTHPDFMLYDALDVVLYMDPMCLDAFPKLVCFKKRIEAIPQIDKYLKSSKYIAWPLQGWQATFGGGDHPPKSDLIEGRQRVEIHKLRQGENLILGFSIGGGIDQDPSQNPFSEDKTDKGIYVTRVSEGGPAEIAGLQIGDKIMQVNGWDMTMVTHDQARKRLTKRSEEVVRLLVTRQSLQK
B10: GST-KIAA1526 #125.1 PDZ domain 1 fusion protein (protein)
chain: MSPILGYWKIKGLVQPTRLLLEYLEEKYEEHLYERDEGDKWRNKKFELGLEFPNLPYYIDGDVKLTQSMAIIRYIADKHNMLGGCPKERAEISMLEGAVLDIRYGVSRIAYSKDFETLKVDFLSKLPEMLKMFEDRLCHKTYLNGDHVTHPDFMLYDALDVVLYMDPMCLDAFPKLVCFKKRIEAIPQIDKYLKSSKYIAWPLQGWQATFGGGDHPPKSDLIEGRLVSLRRAKAHEGLGFSIRGGSEHGVGIYVSLVEPGSLAEKEGLRVGDQILRVNDKSLARVTHAEAVKALKGSKKLVLSVYSAGR
B11: GST-TAX IP 2 PDZ domain 1 fusion protein (protein)
chain: MSPILGYWKIKGLVQPTRLLLEYLEEKYEEHLYERDEGDKWRNKKFELGLEFPNLPYYIDGDVKLTQSMAIIRYIADKHNMLGGCPKERAEISMLEGAVLDIRYGVSRIAYSKDFETLKVDFLSKLPEMLKMFEDRLCHKTYLNGDHVTHPDFMLYDALDVVLYMDPMCLDAFPKLVCFKKRIEAIPQIDKYLKSSKYIAWPLQGWQATFGGGDHPPKSDLIEGRRKEVEVFKSEDALGLTITDNGAGYAFIKRIKEGSVIDHIHLISVGDMIEAINGQSLLGCRHYEVARLLKELPRGRTFTLKLTEPRK
B12: GST-EBP50 #287.1 PDZ domain 2 fusion protein (protein)
chain: MSPILGYWKIKGLVQPTRLLLEYLEEKYEEHLYERDEGDKWRNKKFELGLEFPNLPYYIDGDVKLTQSMAIIRYIADKHNMLGGCPKERAEISMLEGAVLDIRYGVSRIAYSKDFETLKVDFLSKLPEMLKMFEDRLCHKTYLNGDHVTHPDFMLYDALDVVLYMDPMCLDAFPKLVCFKKRIEAIPQIDKYLKSSKYIAWPLQGWQATFGGGDHPPKSDLIEGRLCTMKKGPSGYGFNLHSDKSKPGQFIRSVDPDSPAEASGLRAQDRIVEVNGVCMEGKQHGDVVSAIRAGGDETKLLVVDRE

Columns and labels:
[1] = target: T1, HPV16 E6 PDZ ligand peptide (biotinylated C-terminal peptide of the E6 protein of HPV 16) (human papillomavirus 16); assay: G assay ELISA, signal over GST-only well
[2] = target: T1, HPV16 E6 PDZ ligand peptide …; assay: G assay ELISA, immobilised GST-PDZ, 10 uM biotinylated peptide

| Binder | OD S/N [1] | Ave OD [2] |
| --- | --- | --- |
| B1 | 20.4 and 8.53 | 3.43 A450 nm and 1.27 A450 nm |
| B2 | 13.1 and 7.96 | 2.7 A450 nm and 1.71 A450 nm |
| B3 | 12.2 and 12.5 | 2.7 A450 nm and 1.31 A450 nm |
| B4 | 11.4 and 6.25 | 2.39 A450 nm and 1.36 A450 nm |
| B5 | 11.6 and 7.23 | 2.39 A450 nm and 1.06 A450 nm |
| B6 | 11.8 and 4.35 | 2.08 A450 nm and 1.07 A450 nm |
| B7 | 8.5 and 8.76 | 1.88 A450 nm and 0.915 A450 nm |
| B8 | 9.17 and 13.4 | 1.78 A450 nm and 1.44 A450 nm |
| B9 | 8.24 and 5.67 | 1.62 A450 nm and 0.576 A450 nm |
| B10 | 6.69 and 3.57 | 1.38 A450 nm and 0.766 A450 nm |
| B11 | 2.37 and 2.48 | 0.508 A450 nm and 0.478 A450 nm |
| B12 | 2.57 | 0.499 A450 nm |
